Drawing on article PMC12363188 (2025), this text covers koff and Kd for 1 molecule.

Experiment in all cases: SPR
A general note: Surface plasmon resonance follows binding to a sensor surface in real time, without labels.

Experiment [1] has as its target T1, BANAL-103 S-RBD (residues 326 to 526) (bat coronavirus BANAL-103).
Experiment [2] concerns the target T2, BANAL-52 S-RBD (residues 330 to 530) (bat coronavirus BANAL-52).
Experiment [3] deals with T1, BANAL-103 S-RBD (residues 326 to 526). This is another data set of the same source.
Experiment [4] concerns the target T2, BANAL-52 S-RBD (residues 330 to 530). This is another data set of the same source.

B1: Rhinolophus pusillus bat ACE2 ectodomain (residues 18 to 615) (domain or fragment)
chain: QSITEDKAKKFLNDFNSEAEDLSYQSSLASWDYNTNISDENVQKMDEAGAKWSAFYEEQSKIAKNYPLEEIQTDIVKRQLQILQQSGSPVLSEDKSKRLNSILNAMSTIYSTGKVCKPNNPQECLLLEPGLDNIMGTSKDYHERLWAWEGWRAEVGKQLRPLYEEYVVLKNEMARGYHYEDYGDYWRRDYETEESSGPGYSRDQLMKDVDRIFTEIKPLYEHLHAYVRAKLMDTYPLHISPTGCLPAHLLGDMWGRFWTNLYPLTVPFGQKPNIDVTDEMVKQGWDANRIFKEAEKFFVSVGLPNMTEGFWNNSMLTEPGDGRKVVCHPTAWDLGKGDFRIKMCTKVTMEDFLTAHHEMGHIQYDMAYASQPYLLRNGANEGFHEAVGEVMSLSVATPKHLKTMGLLSPDFREDDETEINFLLKQALNIVGTLPFTYMLEKWRWMVFKGEIPKEEWMKKWWEMKREIVGVVEPVPHDETYCDPASLFHVANDYSFIRYYTRTIFEFQFHEALCRIAQHNGPLHKCDISNSTDAGKKLHQMLSVGKSQAWTKTLEDIVGSRNMDVGPLLRYFKPLYTWLQEQSRKSYVGWNTDWSPYSD
Consider B1, for which the off-rate constant (koff) (in general, a measure of how fast the partners let go of each other) in experiment [1] stood at 0.0044 s⁻¹; in experiment [2], 0.0022 s⁻¹. Further, the dissociation constant Kd – broadly, the equilibrium constant for the complex coming apart – in experiment [3] was 55 nM; in experiment [4] it was 46 nM.
